Measured values from several laboratories, pooled; numbers as filed in NIAID ChemDB.

All rows: tests in culture; agent: Aspergillus flavus

Conditions beyond the fields shown may differ between rows.

compound,read by,strain or isolate,endpoint,value
COc1ccc([Se][Se]c2ccc(OC)cc2)cc1,broth dilution,,MFC,>64 µg/mL
C/C(=N\NC(=O)c1ccc(Cl)cc1)c1ccc(-n2ccnc2)cc1,broth dilution,,MIC50,>737.9 µM
O=C(O)c1ccccc1O,agar,,MIC100,>1000 µg/mL
C[C@@H](c1ncncc1F)[C@](O)(Cn1cncn1)c1ccc(F)cc1F,,,MIC,0.125–4 µg/mL
c1ccc([Se][Se]c2ccccc2)cc1,broth dilution,,MIC,16–64 µg/mL
CCCCCOc1ccc(-c2cc(-c3ccc(C(=O)N[C@H]4C[C@@H](O)[C@@H](O)NC(=O)[C@@H]5[C@@H](O)[C@@H](C)CN5C(=O)[C@H]([C@H](O)CC(N)=O)NC(=O)[C@H]([C@H](O)[C@@H](O)c5ccc(O)c(OS(=O)(=O)O)c5)NC(=O)[C@@H]5C[C@@H](O)CN5C(=O)[C@H]([C@@H](C)O)NC4=O)cc3)no2)cc1,,,MIC50,0.015 µg/mL
O=C/C=C/c1ccccc1,broth dilution,NRRL 501,MIC,80 µg/mL
CCc1ccc(O)c(OC)c1,agar,,MIC100,497 µg/mL
CC1=CC(=O)c2c(O)cccc2C1=O,broth dilution,CCAM 080001,MIC100,5 µg/mL
CC(C)=CCC/C(C)=C/CO,broth dilution,NRRL 501,MIC,144 µg/mL
CCC(C)CC(C)CCCCCCCCC(=O)N[C@H]1C[C@@H](O)[C@H](NCCN)NC(=O)[C@@H]2[C@@H](O)CCN2C(=O)[C@H]([C@H](O)CCN)NC(=O)[C@H]([C@H](O)[C@@H](O)c2ccc(O)cc2)NC(=O)[C@@H]2C[C@@H](O)CN2C(=O)[C@H]([C@@H](C)O)NC1=O,,,MIC,0.015–8 µg/mL
C/C(=N\NC(N)=S)c1ccc(-n2ccnc2)cc1,broth dilution,,MIC50,>964 µM
C=CCc1ccc(O)c(OC)c1,agar,,MIC50,98 µg/mL
Nc1[nH]c(=O)ncc1F,,,MIC50,>64 µg/mL
C/C(=N\NC(=O)c1ccccc1)c1ccc(-n2ccnc2)cc1,broth dilution,,MIC50,>821.4 µM
C[C@@H](c1nc(-c2ccc(C#N)cc2)cs1)[C@](O)(Cn1cncn1)c1cc(F)ccc1F,,,MIC90,1–16 µg/mL
O=C(O)/C=C/c1ccc(O)cc1,agar,,MIC100,>1000 µg/mL
O=C(N/N=C\n1ccnc1)c1ccc(Cl)cc1,broth dilution,,MIC50,>1010 µM

For reference, 2 entries again:

compound	read by	strain or isolate	endpoint	value
C[C@@H](c1ncncc1F)[C@](O)(Cn1cncn1)c1ccc(F)cc1F			MIC	0.125–4 µg/mL
CCC(C)CC(C)CCCCCCCCC(=O)N[C@H]1C[C@@H](O)[C@H](NCCN)NC(=O)[C@@H]2[C@@H](O)CCN2C(=O)[C@H]([C@H](O)CCN)NC(=O)[C@H]([C@H](O)[C@@H](O)c2ccc(O)cc2)NC(=O)[C@@H]2C[C@@H](O)CN2C(=O)[C@H]([C@@H](C)O)NC1=O			MIC	0.015–8 µg/mL

Two numbers with a dash give a range or band. A number after MIC or MFC names an inhibition level or a share of isolates. Blank or dashed fields: not listed here.